Assays:
Sprague-Dawley rats [1] = settings: 10 mg/kg iv, anaesthetized rats
Sprague-Dawley rats [2] = settings: 20 ppm in diet

For “12,13-Epoxytricothec-9-ene-3α,7α,8α, 15-tetraol”, the “duration of action (fed pattern)” value (Sprague-Dawley rats [1]) was 20 to 34 min, the “induction of fed pattern of gut motility” value (Sprague-Dawley rats [1]) was “induce a fed pattern of gut motor activity” and the “time of onset of action after administration” value (Sprague-Dawley rats [1]) was ≤ 120 s. The “normalized daily consumption compared to control” value (Sprague-Dawley rats [2]; Day 3 to Day 5, Study 2) was “significant decreases”, the “reduction in weight gain by Day 5 compared to control” value (Sprague-Dawley rats [2]; Study 2) was “approximately 16%” and the emesis (weanling pigs; single food treat 0.11, 0.17 or 0.34 mg/kg bw, DON finding at medium or high doses) was “no emesis occurred”. For the same substance, the “persistence of effect on food consumption at Day 1 PM and following meals” value (weanling pigs; single treat 0.11, 0.17 or 0.34 mg/kg bw at Day 1 AM) was “wore off by the next meal” and the “food consumption in the Day 1 AM meal following the treat” value (weanling pigs; single treat 0.11, 0.17 or 0.34 mg/kg bw, effect at one or more of the three doses) was “decreased food consumption”.
